One sequence from publication PMC5282649, “Binding site of restriction-modification system controller protein in Mollicutes” can be followed below.

For at least one entry, the source does not settle the construct or the ends of the probe. A negative result means that nothing was seen under these conditions. Where a protein sequence is shown, tags need not be part of it.

For this series, the target named is T1, HsdC (controller protein of type I RM-system) (Mycoplasma gallisepticum S6) (UniProt A0A0F6CKR7).
T1 sequence (looked up, limits assumed): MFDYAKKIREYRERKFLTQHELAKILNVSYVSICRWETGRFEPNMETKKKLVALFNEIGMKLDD
In words: EMSA. The settings on record: 20 mM Tris-HCl pH 7.5, 100 mM KCl, 6% glycerol, 15 min at 37 °C; 20 pmol protein with 10 pmol dsDNA; 6% acrylamide gel, TB buffer pH 8.3, 10 °C, EtBr stain; recombinant protein; protein details: C-terminal His-tag (pETm). Background: In EMSA bound probe runs differently from free probe, usually more slowly.

For the sequence “AATTCAAAAGTGTTAAAAAGTGTGAGAAAGTGGGAAAAAT (double strand) [PmraZ]”, the binding result is “no binding”.
